For two molecules, CC50 results are on record in publication PMC7507806 (ACS Pharmacology & Translational Science, 2020).

For this data set, the system named is Vero E6 cells. The following applies: read-out: Vero E6 cytotoxicity CC50; Table 2 quenching compounds.

Each structure is given as a SMILES string.

As for `CCCCCCCc1ccc(CCc2cccc(O)c2C(=O)O)cc1` [MG-149], the CC50 was 14.1 µM.

For the molecule `CCCCCCCCCCCCCCCc1cccc(O)c1C(=O)O` [anacardic acid], the CC50 amounted to 14.1 µM.

In general, CC50 refers to the concentration that lowers cell viability or growth by half.
